Test results reported in patent US6846933B1, “Antimycobacterial compounds and method for making the same” (priority 2000, dated 2005).

What was measured:
M. tuberculosis EMB-R = assay type: cell-based, Mycobacterium tuberculosis; conditions: ratio MIC EMB-R to MIC
M. tuberculosis ETA-R = assay: MIC vs ETA-R M. tuberculosis; assay type: cell-based, Mycobacterium tuberculosis; conditions: ratio MIC ETA-R to MIC
VERO cells = assay: Cytotoxicity in VERO cells (MTT, 72 hours); assay type: cell-based; conditions: IC50 (VERO cells):MIC ratio
[1] = system: M. tuberculosis Erdman (ATCC 35801) in monolayers of mouse bone marrow macrophages; assay: Killing of M. tuberculosis Erdman in mouse bone marrow macrophages; assay type: cell-based, Mycobacterium tuberculosis; conditions: ratio EC90 to MIC
M. tuberculosis TAC-R = assay type: cell-based, Mycobacterium tuberculosis

Structure (SMILES): CCOC(=O)/C(CCc1ccccc1)=N\NC(=O)c1ccncc1 [Sample ID 132358]
- EMB-R:MIC (M. tuberculosis EMB-R): >32
- ETA-R:MIC (M. tuberculosis ETA-R): 0.08
- SI (VERO cells): >1250

Structure (SMILES): COc1cc(/C=N/NC(=O)c2ccncc2)ccc1O [Sample ID 102858]
- EC 90:MIC [1]: 0.15
- SI (VERO cells): 4000

Structure (SMILES): O=C(N/N=C/c1ccc(Cl)c(Cl)c1)c1ccncc1 [Sample ID 122490]
- SI (VERO cells): >50

Structure (SMILES): O=C(N/N=C/c1c(F)cccc1F)c1ccncc1 [Sample ID 122489]
- SI (VERO cells): >625

Structure (SMILES): CCCCOc1ccc(/C=N/NC(=O)c2ccncc2)cc1 [Sample ID 102090]
- EC 90:MIC [1]: 1.8
- SI (VERO cells): 2000

Structure (SMILES): CCOC(=O)C/C(C)=N/NC(=O)c1ccncc1 [Sample ID 101743]
- EC 90:MIC [1]: 0.05
- SI (VERO cells): 50000

Structure (SMILES): O=C(N/N=C/c1ccc(F)cc1)c1ccncc1 [Sample ID 103167]
- EC 90:MIC [1]: 0.2
- SI (VERO cells): 1000

Structure (SMILES): COc1ccc(/C=N/NC(=O)c2ccncc2)cc1 [Sample ID 102866]
- EC 90:MIC [1]: 0.4
- TAC-R:MIC (M. tuberculosis TAC-R): >32.5
- SI (VERO cells): 1520

Structure (SMILES): CC(C)=CCCC(C)C/C=N/NC(=O)c1ccncc1 (centres unmarked) [Sample ID 102044]
- EC 90:MIC [1]: 0.1
- TAC-R:MIC (M. tuberculosis TAC-R): 15.65
- SI (VERO cells): 1000

Structure (SMILES): O=C(N/N=C/c1ccccc1)c1ccncc1 [Sample ID 102787]
- EC 90:MIC [1]: 0.4
- SI (VERO cells): 2000

Structure (SMILES): CC1C/C(=N/NC(=O)c2ccncc2)CC(C)(C)C1 (centres unmarked) [Sample ID 114353]
- SI (VERO cells): >2000

Structure (SMILES): O=C(N/N=C/c1cc(Cl)ccc1Cl)c1ccncc1 [Sample ID 117150]
- TAC-R:MIC (M. tuberculosis TAC-R): >32.05

Structure (SMILES): O=C(NN=C1CCCCC1)c1ccncc1 [Sample ID 102674]
- EC 90:MIC [1]: 2.67
- SI (VERO cells): 40000

Structure (SMILES): CCC/C(CC(=O)OCC)=N/NC(=O)c1ccncc1 [Sample ID 101702]
- SI (VERO cells): >2631.6

Structure (SMILES): O=C(N/N=C/C=C(c1ccccc1)c1ccccc1)c1ccncc1 [Sample ID 132532]
- EMB-R:MIC (M. tuberculosis EMB-R): >32
- ETA-R:MIC (M. tuberculosis ETA-R): 0.16
- SI (VERO cells): 68

Structure (SMILES): CCCCCCCCCCCC/C=N/NC(=O)c1ccncc1 [Sample ID 102094]
- EC 90:MIC [1]: 0.4
- SI (VERO cells): 374

Structure (SMILES): COc1ccccc1/C=N/NC(=O)c1ccncc1 [Sample ID 102871]
- EC 90:MIC [1]: 0.3
- SI (VERO cells): 500

Structure (SMILES): CC(/C=N/NC(=O)c1ccncc1)=C\c1ccccc1 [Sample ID 103062]
- EC 90:MIC [1]: 0.15
- SI (VERO cells): 250

Structure (SMILES): O=C(N/N=C/c1cccc(/C=N/NC(=O)c2ccncc2)c1)c1ccncc1 [Sample ID 102043]
- EC 90:MIC [1]: 0.8
- SI (VERO cells): 126

Structure (SMILES): O=C(NN=C1CCCC1)c1ccncc1 [Sample ID 111298]
- EC 90:MIC [1]: 1.2
- EMB-R:MIC (M. tuberculosis EMB-R): 2

Structure (SMILES): CC(C)=NNC(=O)c1ccncc1 [Sample ID 102752]
- EC 90:MIC [1]: 0.3
- SI (VERO cells): 10000
